PubChem BioAssay AID504761 – Drosophila RNAi Screening Center | 2011
Test: 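Insect host genes that dengue virus relies on to spread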 (primary screen). System: D.Mel-2 cells from Drosophila. Reagents: long dsRNA against Drosophila genes. Challenge: infection with dengue virus type 2; dose and infection time not stated. Measurement: 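Per well on two replicate plates, imaging gave the percent of cells positive for viral envelope protein, ranked by infection, and a nuclear count of cells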. Reading the numbers: infection score: higher = more virus-infected cells. Call rule: 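Very low infection ranking in both replicate wells (chance probability at most 0.065), then a retest showing infection dropped 1.5-fold or more at p below 0.05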. Calls: active = confirmed: knock-down lowers infection; inactive = not picked or not confirmed.
The screen tested about 22,000 reagents; below is a random part of those that have a named target and a result. Over the whole deposit, 116 (0.52%) got an active call. 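Calls depend on retest data that are not deposited; infection was ranked per plate without normalising between plates; the unit of the infection score is not given.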 Names joined by + are all predicted targets of the reagent. Not all columns of the deposit are shown. Reagent sequences are not shown. Not given: the amount of reagent, the time to read-out.

gene | dsRNA | infection score, replicate 1 | infection score, replicate 2 | call
CG17104 (GeneID 34465) | DRSC02573 | 12.3 | 4.62 | inactive
CG17104 (GeneID 34465) | DRSC29692 | 12.2 | 15.4 | inactive
ND-B14 (GeneID 36159) | DRSC07029 | 21.5 | 8.79 | inactive
ND-B14 (GeneID 36159) | DRSC28660 | 22.1 | 23.1 | inactive
CG4907 (GeneID 42686) | DRSC15673 | 0.85 | 1.02 | inactive
ATP8A (GeneID 36488) | DRSC05421 | 0.92 | 1.98 | inactive
ATP8A (GeneID 36488) | DRSC06643 | 12.3 | 9.73 | inactive
ATP8A (GeneID 36488) | DRSC06644 | 32.3 | 11.7 | inactive
CG8519 (GeneID 38745) | DRSC10985 | 3.88 | 6.85 | inactive
CG8519 (GeneID 38745) | DRSC26203 | 9.67 | 2.43 | inactive
Ctl2 (GeneID 43440) | DRSC14423 | 1.22 | 5.37 | inactive
Ctl2 (GeneID 43440) | DRSC29712 | 16.2 | 10.3 | inactive
CG18095 (GeneID 34823) | DRSC01948 | 13.9 | – | inactive
acj6 (GeneID 47080) | DRSC20304 | 4.13 | 1.05 | inactive
acj6 (GeneID 47080) | DRSC29003 | 8.37 | 13.9 | inactive
CG3457 (GeneID 31196) | DRSC18509 | 2.28 | 1.98 | inactive
CG3457 (GeneID 31196) | DRSC26458 | 2.29 | 2.62 | inactive
stck (GeneID 40999) | DRSC17070 | 7.09 | 5.32 | inactive
CG4218 (GeneID 34848) | DRSC01939 | 18.7 | 5.73 | inactive
CG4218 (GeneID 34848) | DRSC27814 | 4.4 | 11.8 | inactive
CG32206 (GeneID 40105) | DRSC10094 | 5.11 | 8.89 | inactive
CG32206 (GeneID 40105) | DRSC10095 | 5.83 | 7.33 | inactive
CG32206 (GeneID 40105) | DRSC10096 | 1.82 | 1.38 | inactive
CG32206 (GeneID 40105) | DRSC11080 | 2.66 | 3.87 | inactive
CG42446 + CG17931 | DRSC28824 | 13.3 | – | inactive
CG5167 (GeneID 41521) | DRSC15728 | 7.71 | 20.6 | inactive
Ir87a (GeneID 41654) | DRSC14836 | 5.66 | 20.1 | inactive
Ir87a (GeneID 41654) | DRSC27649 | 11.1 | 5.38 | inactive
CkIIbeta2 (GeneID 37300) | DRSC07361 | 4.96 | 0.73 | inactive

The list goes on (4 carried over from the part before).
gene | dsRNA | infection score, replicate 1 | infection score, replicate 2 | call
CG5167 (GeneID 41521) | DRSC15728 | 7.71 | 20.6 | inactive
Ir87a (GeneID 41654) | DRSC14836 | 5.66 | 20.1 | inactive
Ir87a (GeneID 41654) | DRSC27649 | 11.1 | 5.38 | inactive
CkIIbeta2 (GeneID 37300) | DRSC07361 | 4.96 | 0.73 | inactive
CG6962 (GeneID 41436) | DRSC16153 | 4.97 | 8.32 | inactive
CG6962 (GeneID 41436) | DRSC28894 | 10.8 | 17.1 | inactive
CG9147 (GeneID 33855) | DRSC03147 | – | 4.94 | inactive
CG9147 (GeneID 33855) | DRSC27889 | 10.3 | 4.21 | inactive
Ppa (GeneID 37602) | DRSC04598 | 4.11 | 6.63 | inactive
Ppa (GeneID 37602) | DRSC28700 | 8.81 | 26.3 | inactive
Vha100-4 (GeneID 42214) | DRSC16282 | 3.33 | 9.11 | inactive
Vha100-4 (GeneID 42214) | DRSC26139 | 5.43 | 0.58 | inactive
CG9284 (retired record) (GeneID 50130) | DRSC03899 | 1.97 | 2.26 | inactive
CG9284 (retired record) (GeneID 50130) | DRSC04536 | 6.87 | 35.7 | inactive
Papst2 (GeneID 39914) | DRSC10924 | 3.6 | 6.53 | inactive
Papst2 (GeneID 39914) | DRSC27212 | 23.7 | 3.57 | inactive
COX8 (GeneID 40390) | DRSC11814 | 2.56 | 14.3 | inactive
COX8 (GeneID 40390) | DRSC28975 | 6.4 | 17 | inactive
LManII (GeneID 34437) | DRSC01986 | 19.4 | 7.65 | inactive
Dyrk3 (GeneID 3885567) | DRSC21055 | 9.08 | 7.07 | inactive
CG4701 (GeneID 34858) | DRSC01952 | 0.56 | 1.64 | inactive
CG10413 (GeneID 35111) | DRSC02052 | 9.15 | 3.49 | inactive
Cyp318a1 (GeneID 32172) | DRSC19784 | 1.5 | 1.7 | inactive
CG10654 (GeneID 39428) | DRSC09767 | 3.73 | 13 | inactive
CG17633 (GeneID 34297) | DRSC02631 | 5.69 | 5.76 | inactive
CG17633 (GeneID 34297) | DRSC29709 | 6.34 | 4.71 | inactive
teq (GeneID 39048) | DRSC10298 | 5.6 | 4.28 | inactive
teq (GeneID 39048) | DRSC11301 | 1.21 | 2 | inactive
teq (GeneID 39048) | DRSC11302 | 2.12 | 2.08 | inactive
CG13051 (GeneID 5740583) | DRSC09932 | 1.15 | 1.6 | inactive
Pp2B-14D (GeneID 32624) | DRSC20270 | 2.03 | 2.59 | inactive
Pp2B-14D (GeneID 32624) | DRSC23315 | 1.78 | 2.78 | inactive
Lcp65APsi (GeneID 3771993) | DRSC08795 | 2.45 | 2.83 | inactive
Lcp65APsi (GeneID 3771993) | DRSC10342 | 0.54 | 3.49 | inactive
Or47a (GeneID 36187) | DRSC07491 | 9.89 | 7.19 | inactive
CG33230 (GeneID 2768998) | DRSC08602 | 15.4 | 20.3 | inactive
Cyp4ac1 (GeneID 33754) | DRSC03302 | 0.48 | 2.55 | inactive
klg (GeneID 42707) | DRSC13591 | 1.2 | 0.08 | inactive
klg (GeneID 42707) | DRSC16978 | 1.98 | 12.7 | inactive
Sec31 (GeneID 35877) | DRSC07131 | 9.83 | 7.77 | inactive
Sec31 (GeneID 35877) | DRSC27091 | 11.2 | 12 | inactive
CG15096 (GeneID 37170) | DRSC06525 | 2.71 | 3.69 | inactive
CG15096 (GeneID 37170) | DRSC29737 | 5.21 | 1.96 | inactive
Sec24AB (GeneID 36025) | DRSC06478 | 16.6 | 16.3 | inactive
Sec24AB (GeneID 36025) | DRSC25940 | 5 | 10.2 | inactive
kune (GeneID 35504) | DRSC04860 | 9.62 | 3.31 | inactive
CG3631 (GeneID 41797) | DRSC15503 | 5.25 | 5.09 | inactive
CG3631 (GeneID 41797) | DRSC29768 | 5.07 | 2.37 | inactive
CheB53b (GeneID 3346204) | DRSC05613 | 5.43 | 4.3 | inactive
CheB53b (GeneID 3346204) | DRSC28557 | 19.1 | 18.1 | inactive
